Anti-infective test results gathered from many reports (values: NIAID ChemDB through PubChem).

Common to all: tests in culture; agent: Aspergillus niger; endpoint: inhibition

Neighbouring rows are from separate reports.

compound | read by | dose | strain | result
Cc1cc(C=Nc2ccc(N=Cc3cc(C)cc(/C=N/Nc4nc5ccccc5s4)c3O)cc2)c(O)c(/C=C/Nc2nc3ccccc3s2)c1 | turbidity | 50 µg/mL |  | 39.62%
Cc1ccc(-[n+]2noc([O-])c2C(=O)CSc2nc3ccccc3[nH]2)cc1Cl | agar diffusion | 20 µg/mL |  | 0%
CSc1ccc(C2CC(c3cccc4c3OCO4)=NN2c2ccccc2)cc1 | broth dilution | 2000 µg/mL | NCIM 596 | 71.37%
CC(=O)/C=C(\O)c1coc2cc(O)c(O)c(C(=O)O)c2c1=O | absorbance | 200 µg/mL |  | 0%
CC(=O)N1N=C(c2sc3ccc(Cl)cc3c2Cl)OC1c1ccccc1 | agar diffusion / agar | 40 µg/mL | ATCC 9029 | 27%
O=C(O)CC(=O)OCC1OC(Oc2c[nH]c3ccccc23)C(O)C(=O)C1O |  | 400 µg/mL | ATCC 1015 | 47.7%
Cc1ccc(C)c(-[n+]2noc([O-])c2C(=O)CSc2nc3ccccc3[nH]2)c1 | agar diffusion | 20 µg/mL |  | 0%
CSc1ccc(C2CC(c3ccc(C)cc3)=NN2c2ccccc2)cc1 | broth dilution | 2000 µg/mL | NCIM 596 | 92.98%
C=CC(C/C(=N/OS(=O)(=O)O)SC1OC(CO)C(O)C(O)C1O)OC(=O)CC1C(=O)Nc2ccccc21 |  | 400 µg/mL | ATCC 1015 | 68.8%
CSc1ccc(C2CC(c3ccc(Cl)cc3)=NN2c2ccccc2)cc1 | broth dilution | 2000 µg/mL | NCIM 596 | 92.99%
COc1ccc(-[n+]2noc([O-])c2C(=O)CSc2nc3ccccc3[nH]2)cc1 | agar diffusion | 20 µg/mL |  | 0%
C/C(=N\NC(=S)Nc1cccc(Cl)c1)c1c(O)ccc2c(C)cc(=O)oc12 | agar diffusion / agar | 50 µg/mL |  | 74.49%
Clc1ccc2c(c1)nnc1nnnn12 |  | 22 µg/mL | CCM F-384 | 90%
CSc1ccc(C2CC(c3ccccc3)=NN2c2ccccc2)cc1 | broth dilution | 2000 µg/mL | NCIM 596 | 93.52%
C=CC(C/C(=N/OS(=O)(=O)O)SC1OC(CO)C(O)C(O)C1O)OC(=O)CC1(O)C(=O)Nc2ccccc21 |  | 400 µg/mL | ATCC 1015 | 75%
CSc1ccc(C2CC(c3ccc(F)cc3)=NN2c2ccccc2)cc1 | broth dilution | 2000 µg/mL | NCIM 596 | 97.28%
O=C(CSc1nc2ccccc2[nH]1)c1c([O-])on[n+]1-c1cccc(Cl)c1 | agar diffusion | 20 µg/mL |  | 0%

The last 2 rows once more:

compound | read by | dose | strain | result
CSc1ccc(C2CC(c3ccc(F)cc3)=NN2c2ccccc2)cc1 | broth dilution | 2000 µg/mL | NCIM 596 | 97.28%
O=C(CSc1nc2ccccc2[nH]1)c1c([O-])on[n+]1-c1cccc(Cl)c1 | agar diffusion | 20 µg/mL |  | 0%

An empty or dashed field is not shown. Inhibition is in % at the dose shown (toxicity tests: loss of growth or viability).